Results on 1 compound are retold here after ChEMBL document CHEMBL4017475, “Discovery of benzophosphadiazine drug candidate IDX375: A novel hepatitis C allosteric NS5B RdRp inhibitor” (2017).

Series [1] deals with Hepatitis C virus. In words: Antiviral activity against Hepatitis C virus by luciferase assay.
A short description of series [2]: Inhibition of Hepatitis C virus 1a NS5B RNA-dependent RNA polymerase by cell based assay.
Series [3] can be described thus: Inhibition of Hepatitis C virus 1b NS5B RNA-dependent RNA polymerase by cell based assay.
Series [4] deals with Cynomolgus monkey. In words: Cmax in cynomolgus monkey at 10 mg/kg, po. Conditions: in vivo.
The test system of series [5] is Cynomolgus monkey. In words: Tmax in cynomolgus monkey at 10 mg/kg, po. Conditions: in vivo.
Series [6] concerns Cynomolgus monkey. Kind of series: Half life in cynomolgus monkey at 10 mg/kg, po. Conditions: in vivo.
For series [7], the system named is Cynomolgus monkey. In words: Clearance in cynomolgus monkey at 10 mg/kg, po. The conditions noted are these: in vivo.
The subject of series [8] is Cynomolgus monkey. Kind of series: Oral bioavailability in cynomolgus monkey at 10 mg/kg. Conditions: in vivo.
The test system of series [9] is Mus musculus. In words: Cmax in mouse at 15 mg/kg, po. Conditions: in vivo.
Series [10] deals with Mus musculus. Kind of series: Tmax in mouse at 15 mg/kg, po. The conditions noted are these: in vivo.
The test system of series [11] is Mus musculus. In words: Half life in mouse at 15 mg/kg, po. Conditions: in vivo.
In series [12] the test system is Mus musculus. In words: Clearance in mouse at 15 mg/kg, po. The conditions noted are these: in vivo.
Series [13] relates to Mus musculus. In words: Oral bioavailability in mouse at 15 mg/kg. The conditions noted are these: in vivo.
For series [14], the system named is Rattus norvegicus. In words: Cmax in rat at 15 mg/kg, po. Conditions: in vivo.
Series [15] relates to Rattus norvegicus. In words: Tmax in rat at 15 mg/kg, po. Conditions: in vivo.
Series [16] deals with Rattus norvegicus. Kind of series: Half life in rat at 15 mg/kg, po. The conditions noted are these: in vivo.
For series [17], the system named is Rattus norvegicus. In words: Clearance in rat at 15 mg/kg, po. Conditions: in vivo.
Series [18] relates to Rattus norvegicus. Kind of series: Oral bioavailability in rat at 15 mg/kg. Conditions: in vivo.
For series [19], the system named is Hepatitis C virus. Kind of series: Antiviral activity against HCV-1 infected in human assessed as log reduction in HCV RNA levels at 200 mg, bid by RT-PCR method. The conditions noted are these: strain genotype 1.

SMILES strings stand for the structures.

For the compound `CCO[P@]1(=O)N=C(C2=C(O)[C@H](C(C)(C)C)N(CCC(C)(C)C)C2=O)Nc2ccc(NS(C)(=O)=O)cc21`, the EC50 in the series on Hepatitis C virus [1] amounted to 3 nM. The IC50 in [2] was found to be 15 nM; in [3], 5 nM. Further, the Cmax with Cynomolgus monkey [4] amounted to 2250 ng/mL; in the series with Mus musculus [9] it was 569 ng/mL; in the series with Rattus norvegicus [14] it was 2210 ng/mL. For the same compound, the Tmax in the series with Cynomolgus monkey [5], in the series on Mus musculus [10] and in the series on Rattus norvegicus [15] was 4 h throughout. Further, the t1/2 in the series with Cynomolgus monkey [6] is 5.5 h; with Mus musculus [11], 5.1 h; with Rattus norvegicus [16] it was 1.3 h. Besides, the clearance in the series on Cynomolgus monkey [7] worked out at 14 mL/min/kg; with Mus musculus [12] it was 26.3 mL/min/kg; in the series with Rattus norvegicus [17], 10.2 mL/min/kg. Further, the bioavailability in the series on Cynomolgus monkey [8] came out at 28%; with Mus musculus [13] it was 35%; in the series on Rattus norvegicus [18], 16%. The Activity entry with Hepatitis C virus [19] is “<=2.7”.
